Here are results for one substance from US8754130B2, “Compositions of dibromomalonamide and their use as biocides” (Dow Global Technologies LLC, priority 2009, dated 2014).

The experiment has as its system consortium of bacteria: mixture of Pseudomonas aeruginosa, Klebsiella pneumoniae, Staphylococcus aureus, and Bacillus subtilis. Briefly: Growth inhibition assay (microtiter plate-based synergy assay). It counts as cell-based. The note with it: 24 h.

For the substance “4,5-dichloro-2-n-octylisothiazolin-3-one”, the “% Inhibition of growth by DCOIT” value by setting is: (DCOIT 0.19 mg/l alone) 0%; (DCOIT 0.39 mg/l alone) 0%; (DCOIT 0.78 mg/l alone) 26%; (DCOIT 1.56 mg/l alone) 41%; (DCOIT 3.13 mg/l alone) 37%; (DCOIT 6.25 mg/l alone) 99%. Also, the “% Inhibition of growth by DCOIT” value (DCOIT 12.5 mg/l alone) was found to be 99% and the “% Inhibition of growth by DCOIT” value (DCOIT 25.0 mg/l alone) was 97%. The “I90 value (minimum concentration in which growth of the consortium is at least 90% less than controls)” value (single active alone) came out at 6.25 mg/L.
